Experimental data as given in paper PMC7193532 (Acta Crystallographica. Section D, Structural Biology, 2020).

How the values were obtained:
Mtb [1] = conditions: mutations at Leu92 and Leu96 of ClpC1; ref Gao et al., 2015; cited from earlier work
Mtb [2] = conditions: unpublished data

## CCC(C)C(C(=O)NC1C(=O)N(C)C(C(C)O)C(=O)NC(C(C)C)C(=O)N(C)C(CC(C)C)C(=O)NC(C(C)C)C(=O)N(C)C(C(C)C)C(=O)N(C)C(Cc2c[nH]c3cccc(OC)c23)C(=O)NC(C(C)C)C(=O)NC(C(O)c2ccccc2)C(=O)NC(C(C)C)C(=O)OC1C)N(C)C(=O)C(NC(=O)C(C(C)C)N(C)C)C(C)C (centres unmarked) [ECU, ecumicin]
Mtb [1]
  resistant strains: three strains of Mtb with resistance

## CN[C@H](C(=O)N[C@H](C(=O)N[C@@H]1C(=O)N(C)[C@@H]([C@@H](C)O)C(=O)N[C@@H](C(C)C)C(=O)N(C)[C@@H](CC(C)C)C(=O)N[C@@H](C(C)C)C(=O)N(C)[C@@H](C(C)C)C(=O)N(C)[C@@H](Cc2c[nH]c3cccc(OC)c23)C(=O)N[C@@H](C(C)C)C(=O)N[C@@H]([C@H](O)c2ccccc2)C(=O)N[C@@H](C(C)C)C(=O)O[C@@H]1C)C(C)C)C(C)C [OMS-A, ohmyungsamycin A]
Mtb [2]
  MIC90 pattern for Mtb strains resistant to RUF-I and ECU: a pattern consistent with ECU
